Data as given in PubChem BioAssay AID624099 (ICCB-Longwood, 2012)
The whole screen tested about 21,000 reagents; shown is an unselected part. 497 of them (2.4%) were called active. 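Higher z means weaker E2 silencing; only reporter increases were scored, and knock-downs that hurt cell survival may mask genuine repressor factors.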 No sequences are given here.

Screen: 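Human genes that papillomavirus E2 requires to repress the HPV18 LCR promoter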 (primary screen)
Cell system: human C33A cervical carcinoma cells (HPV-negative) stably expressing BPV1 E2 and an HPV18 LCR luciferase reporter
Knock-down reagent: siRNA pool against human genes, 40 nM
Timing: 72 h
Measured: 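Per-well luciferase luminescence, z-scored on each plate against the plate mean and SD with control wells left out, then averaged across three replicate plates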
Direction: mean z-score and z-score: higher = stronger reporter signal, weaker E2 silencing
Call rule: 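Mean z ≥ 2 together with z ≥ 2 in two or more of the three replicates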

The opening 2 records as a preview:
no.	Gene	mean z-score	z-score, replicate A	z-score, replicate B	z-score, replicate C	Call
1	DNASE1L3	0.42	0.26	0.71	0.29	inactive
2	SYVN1	-0.95	-0.84	-1.05	-0.96	inactive

The list itself, repeating the preview:
no.	Gene	mean z-score	z-score, replicate A	z-score, replicate B	z-score, replicate C	Call
1	DNASE1L3	0.42	0.26	0.71	0.29	inactive
2	SYVN1	-0.95	-0.84	-1.05	-0.96	inactive
3	MT-ND6	-0.61	-0.41	-0.74	-0.68	inactive
4	SNX2	0.38	0.35	0.35	0.45	inactive
5	LOC402251 (retired record)	0.23	0.23	0.09	0.36	inactive
6	PWWP2B	1.03	0.87	1.2	1.03	inactive
7	CHCHD6	0.66	0.78	0.4	0.81	inactive
8	LOC391303 (retired record)	-0.48	-0.48	-0.21	-0.74	inactive
9	RBM38	0.66	0.63	0.75	0.59	inactive
10	GATA6	-0.45	-0.56	-0.4	-0.4	inactive
11	COIL	0.07	-0.18	0.08	0.31	inactive
12	RAVER1	1.19	1.28	1.26	1.02	inactive
13	RBM18	0.17	-0.18	-0.02	0.71	inactive
14	CBLN4	-0.6	-0.85	-0.55	-0.41	inactive
15	THEMIS	-0.17	-0.23	-0.3	0.01	inactive
16	RDH13	0.58	0.57	0.33	0.83	inactive
17	MCM8	0.18	0.17	0.21	0.17	inactive
18	CC2D1A	0.94	0.65	1.03	1.13	inactive
19	NISCH	0.12	0.14	-0.07	0.27	inactive
20	SYT10	-0.87	-0.88	-0.84	-0.88	inactive
21	REX1BD	1.21	1.67	1.27	0.7	inactive
22	ZNF234	-0.06	0.07	-0.29	0.03	inactive
23	OR4X1	-0.36	-0.31	-0.18	-0.58	inactive
